Test results taken from patent US20240124545A1, “COMPOSITIONS AND METHODS RELATING TO THE TREATMENT OF DISEASES” (ILC THERAPEUTICS LIMITED, priority 2021, published 2024).
Values joined by “and” are separate entries in the source; they are usually repeats but may differ in a detail not shown here. Equal entries are not always repeated.

Test system: HIV-1 LAI
Assay: HIV-1 LAI infectivity assay with β-galactosidase readout (Experiment 5)
Format: cell-based, human immunodeficiency virus type 1 (HIV-1) LAI strain
Conditions: for HIV-1 Infectivity in HeLa-CD4-βgal cells (% vehicle): 48 hours, mean of duplicates; for HIV Infectivity in HeLa CD4 βgal cells (β-galactosidase units): individual values

**Q.** With Interferon-beta 1a [Sample C] as the substance, how does the “HIV-1 Infectivity in HeLa-CD4-βgal cells (% vehicle)” value (from here on “HIV-1 Infectivity … (% vehicle)”) (0.0001 ng/mL) read?
**A.** 104.0 % vehicle

**Q.** And the “HIV Infectivity in HeLa CD4 βgal cells (β-galactosidase units)” value (from here on “HIV Infectivity in HeLa CD4 βgal cells”) (0.0001 ng/mL)?
**A.** 1,061,587 RLU and 1,054,513 RLU

**Q.** What about the “HIV-1 Infectivity … (% vehicle)” value (0.001 ng/mL) of the same substance?
**A.** 86.6 % vehicle

**Q.** What about the “HIV Infectivity in HeLa CD4 βgal cells” value (0.001 ng/mL) of the same substance?
**A.** 866,038 RLU and 897,100 RLU

**Q.** And the “HIV-1 Infectivity … (% vehicle)” value (0.01 ng/mL)?
**A.** 93.5 % vehicle

**Q.** What about the “HIV Infectivity in HeLa CD4 βgal cells” value (0.01 ng/mL) of the same substance?
**A.** 931,295 RLU and 971,503 RLU

**Q.** What about the “HIV-1 Infectivity … (% vehicle)” value (0.1 ng/mL) of the same substance?
**A.** 95.3 % vehicle

**Q.** What about the “HIV Infectivity in HeLa CD4 βgal cells” value (0.1 ng/mL) of the same substance?
**A.** 875,861 RLU and 1,062,570 RLU

**Q.** And the “HIV-1 Infectivity … (% vehicle)” value (1 ng/mL)?
**A.** 92.7 % vehicle

**Q.** What about the “HIV Infectivity in HeLa CD4 βgal cells” value (1.0 ng/mL) of the same substance?
**A.** 854,623 RLU and 1,031,833 RLU

**Q.** What about the “HIV-1 Infectivity … (% vehicle)” value (10 ng/mL) of the same substance?
**A.** 87.4 % vehicle

**Q.** What about the “HIV Infectivity in HeLa CD4 βgal cells” value (10 ng/mL) of the same substance?
**A.** 863,734 RLU and 915,402 RLU

**Q.** What about the “HIV-1 Infectivity … (% vehicle)” value (100 ng/mL) of the same substance?
**A.** 47.9 % vehicle

**Q.** And the “HIV Infectivity in HeLa CD4 βgal cells” value (100 ng/mL)?
**A.** 479,228 RLU and 500,227 RLU

**Q.** What about the “HIV-1 Infectivity … (% vehicle)” value (1,000 ng/mL) of the same substance?
**A.** 30.8 % vehicle

**Q.** What about the “HIV Infectivity in HeLa CD4 βgal cells” value (1,000 ng/mL) of the same substance?
**A.** 301,335 RLU and 330,945 RLU

**Q.** And the “HIV-1 Infectivity … (% vehicle)” value (10,000 ng/mL)?
**A.** 8.9 % vehicle

**Q.** What about the “HIV Infectivity in HeLa CD4 βgal cells” value (10,000 ng/mL) of the same substance?
**A.** 94,978 RLU and 94,195 RLU
